# Experimental data from patent US7501399B2, “Immunoeffector compounds” (Corixa Corporation, priority 2000, dated 2009).
# Tested on: transfected P815S cells expressing the L^d-restricted epitope
# Assay: CTL activity of spleen cells from HBsAg immunized mice, four hour 51Cr-release assay (Example 5)
substance,measurement,setting,value
N—[(R)-3-Tetradecanoyloxytetradecanoyl]-(S)-2-pyrrolidinomethyl 2-Deoxy-4-O-phosphono-2-[(R)-3-tetradecanoyloxytetradecanoylamino]-3-O—[(R)-3-tetradecanoyloxytetradecanoyl]-β-D-glucopyranoside Triethylammonium Salt [RC-553],Percent Specific Killing (Effector:Target Ratio) 6.25:1,"E:T 6.25:1, spleen cells 9 days post-vaccination, four day peptide incubation",37%
same,Percent Specific Killing (Effector:Target Ratio) 12.5:1,"E:T 12.5:1, spleen cells 9 days post-vaccination, four day peptide incubation",53%
same,Percent Specific Killing (Effector:Target Ratio) 25.1,"E:T 25.1 as printed, spleen cells 9 days post-vaccination, four day peptide incubation",77%
same,Percent Specific Killing (Effector:Target Ratio) 50:1,"E:T 50:1, spleen cells 9 days post-vaccination, four day peptide incubation",85%
same,CTL activity versus antigen only controls,"Example 5, text",significantly elevated levels of CTL activity compared to the antigen only controls
